Test results reported in PubChem BioAssay AID652176 (Sanford-Burnham Center for Chemical Genomics, 2013).
Only a part is listed here, and it is no random draw. Calls of active or inactive are those of the source.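 Rule for the calls: active = replicate-average signal at least 3 plate SD below neutral wells, shown as high inhibition, flagging enzyme-inhibiting false positives; inactive = the rest.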

These compounds were tested on Beta-galactosidase (Escherichia coli), counter-screen for EBI2 antagonists (assay: inhibitors of purified bacterial beta-gal – biochemical, luminescence, single concentration, counter-screen for EBI2 antagonist project, confirmation (AID 652176;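 note: 0% = DMSO wells with enzyme and 100% = wells lacking enzyme; higher means stronger loss of beta-gal luminescence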)). Conditions: luminescent Galacton Star, 15 min, at 5 µM, active compounds read high.
In the case of CN(Cc1cccnc1)C(=O)COc1ccc(Cl)c(Cl)c1.O=[N+]([O-])c1cc([N+](=O)[O-])c(O)c([N+](=O)[O-])c1, the inhibition is reported as inactive: -7.13%.
